Measured values from several laboratories, pooled; numbers as filed in NIAID ChemDB.

Shared fields: growth or infection tests; agent: Mycobacterium tuberculosis

An empty or dashed field is not shown. MIC bound comes from a single tested concentration. A number after MIC or MFC names an inhibition level or a share of isolates. Percent inhibition refers to the dose given; in toxicity tests it is the harm to the cells. Lines come from different laboratories, so protocols vary. ECn: concentration that inhibits the pathogen or its effect by n%.

SMILES | dose | strain | cells | changes | endpoint | method | value
C[n+]1cc2c(cn3c4ccccc4ccc23)c2ccccc21 |  | H37Ra |  |  | MIC | resazurin / visual reading | 0.7 µg/mL
O=[N+]([O-])c1ccc(Oc2cnc3nc(-c4cccc([N+](=O)[O-])c4)[nH]c3c2)cc1 |  | H37Rv |  |  | MIC80 | resazurin / absorbance | 2.6 µM
CCOC(=O)c1cc(C2(O)CCN(CC(C)CC)C2=O)c(-c2cc(C)no2)[nH]1 | 6.25 µg/mL | H37Rv |  |  | inhibition | resazurin | -9%
O=c1cc(-c2ccc(Cc3ccc(OC(F)(F)F)cc3)cc2)[nH]c2ccccc12 | 5 µM | H37Rv |  |  | inhibition | fluorescence | 0%
COc1ccccc1-c1c(C)cc2oc(=O)cc(-c3ccccc3)c2c1C |  | H37Rv |  | FadD32 | EC90 | turbidity | >64 µM
COc1ccc2c(c1)NC(c1ccc(C(N)=S)cc1)N2 | 6.25 µg/mL | H37Rv |  |  | inhibition | resazurin | 35%
NNC(=O)c1ccncc1 |  |  |  |  | MIC |  | 0.2 µM
C[n+]1cc2c(cn3c4ccccc4ccc23)c2ccccc21.[I-] |  | H37Rv |  | Ethionamide-resistant | MIC | resazurin / visual reading | 6.2 µg/mL
COc1ccc(-c2nc3ncc(Oc4ccc([N+](=O)[O-])cc4)cc3[nH]2)c(O)c1 |  | H37Rv |  |  | MIC80 | resazurin / absorbance | 1.6 µM
NNC(=O)c1ccncc1 |  | R37RV |  |  | MIC |  | 0.1 µg/mL
O=c1c2cc3c(=O)n4c(cc(-c5ccccc5)c5cc(Cl)ccc54)nc3cc2nc2cc(-c3ccccc3)c3cc(Cl)ccc3n12 |  | H37Rv |  |  | MIC bound | resazurin | >6.25 µg/mL
Cc1ccc(-c2nc3ncc(Oc4ccc([N+](=O)[O-])cc4)cc3[nH]2)c(O)c1 |  | H37Rv |  |  | MIC80 | resazurin / absorbance | 1.7 µM
CC1Oc2cc3c(-c4c(O)cc(O)c5c(O)c6c(cc45)OC(C)C(C)C6=O)c(O)cc(O)c3c(O)c2C(=O)C1C | 12.5 µg/mL | H37Rv |  |  | inhibition | BACTEC | 18%
Cc1cc(N)cc2c(=O)c3ccccc3oc12 |  | H37Rv |  |  | MIC |  | >16 µg/mL
Cc1ccccc1-c1nc2ncc(Oc3ccc([N+](=O)[O-])cc3)cc2[nH]1 |  | H37Rv |  |  | MIC80 | resazurin / absorbance | 1.2 µM
CC[C@@H](CO)NCCN[C@@H](CC)CO |  |  |  |  | MIC |  | 7.2 µM
O=C(/N=C/c1ccc([N+](=O)[O-])cc1)NCCCN1c2ccccc2Sc2ccccc21 | 25 µg/mL | H37Rv |  |  | inhibition | agar | 32%
CCOC(=O)c1c(NC(=O)c2c(F)c(F)c(F)c(F)c2F)sc2c1CCCCC2 |  |  |  |  | MIC |  | 1.9 µM
Cc1ccc2c(=O)c3ccccc3oc2c1C |  | H37Rv |  |  | MIC |  | >8 µg/mL
O=C(c1ccc(O)c(C(=O)O)c1)c1ccc(O)c(C(=O)O)c1 | 6.25 µg/mL | H37Rv |  |  | inhibition | BACTEC | 5%
Cc1ccc(-c2ccc3oc(=O)cc(-c4ccccc4)c3c2)cc1 |  | H37Rv |  | FadD32 | EC90 | turbidity | >250 µM
COc1ccc(-n2c(-c3ccc(C)cc3)cc(CN3CCOCC3)c2C)cc1 |  | H37Rv |  |  | MIC90 |  | 141 µM
O=[N+]([O-])c1ccc(Oc2cnc3nc(-c4cccc(Cl)c4)[nH]c3c2)cc1 |  | H37Rv |  |  | MIC80 | resazurin / absorbance | 1.8 µM
COc1cc(Cc2cnc(N)nc2N)ccc1OCCc1ccccc1 |  | H37Rv |  |  | MIC |  | 34.2 µM
O=[N+]([O-])c1ccc2c(c1)nc1n2C(c2c(F)cccc2F)SC1 |  | H37Rv |  |  | MIC bound | BACTEC | >12.5 µg/mL
C=C(C)/C=C/[C@]12C[C@H](C)C3CC[C@](C)(NC=O)[C@@H](CC[C@H]1C)[C@@H]32 |  | H37Rv |  |  | MIC100 | resazurin | 32 µg/mL
Cc1cc2oc(=O)cc(-c3ccccc3)c2c(C)c1-c1ccc(CNC2CCCCC2)cc1 |  | H37Rv |  | FadD32 | EC90 | turbidity | 10.5 µM
COc1cccc(OC)c1-c1nc2ncc(Oc3ccc([N+](=O)[O-])cc3)cc2[nH]1 |  | H37Rv |  |  | MIC80 | resazurin / absorbance | 0.5 µM
O=S(=O)([O-])c1cc2nc3c4cccc(S(=O)(=O)[O-])c4c(Nc4ccccc4)cc3[n+](-c3ccccc3)c2cc1Nc1ccccc1.[Na+] |  | H37Rv |  |  | MIC bound | BACTEC | >12.5 µg/mL
CCCCCCCCCCCCCCC[C@H]1CC=CC(=O)N1 | 128 µg/mL | H37Rv |  |  | inhibition | fluorescence | 74.7%
CN(C)CCCN1c2ccccc2Sc2ccccc21 |  |  |  |  | MIC |  | >25 µg/mL
O=C(Nc1ccc(Br)cc1)c1cc(F)ccc1O |  | CNCTC MY331/88 |  |  | MIC |  | 4 µM
CCOC(=O)Cc1csc(=NC(=O)c2ccccc2)n1N |  | H37Rv |  |  | MIC bound | resazurin | >6.25 µg/mL
CC1COc2c(N3CCN(C)CC3)c(F)cc3c(=O)c(C(=O)O)cn1c23 |  | 18 strains |  |  | MIC90 |  | 1 µg/mL
Cc1ccc(-c2nc3ncc(Oc4ccc([N+](=O)[O-])cc4)cc3[nH]2)cc1 |  | H37Rv |  |  | MIC80 | resazurin / absorbance | 1.3 µM
O=C(/N=C/c1cccc(O)c1)NCCCN1c2ccccc2Sc2ccccc21 | 25 µg/mL | H37Rv |  |  | inhibition | agar | 30%
C=C1C(=O)[C@@]23C(CC[C@@H]1[C@H]2O)C1(COC(C)=O)C(O)CCC(C)(C)C1C[C@H]3O | 12.5 µg/mL | H37Rv |  |  | inhibition | BACTEC | 11%
CCCCCCCCCCCCCCC[C@H](O)C[C@H](O)C[C@H](O)C[C@H]1CC=CC(=O)O1 |  | H37Rv |  |  | MIC |  | 23.4 µg/mL
O=C(NN=C1CCCCC1)c1ccncc1 |  | Erdman |  |  | MIC |  | 0.03 µg/mL
CCCCCCCCCCCCCCCCOc1ccc(Cc2cnc(N)nc2N)cc1OC |  | H37Rv |  |  | MIC |  | >68 µM
O=C(Nc1cccc(F)c1)c1cc(Br)ccc1O |  | CNCTC MY331/88 |  |  | MIC |  | 8 µM
Cc1ccc(-c2cc(CN3CCOCC3)c(C)n2-c2ccc(F)cc2)cc1 |  | H37Rv DR3 |  | V681I S87P | MIC |  | 5.4 µM
CCCCCCCCCCCCCCC[C@H](O)C[C@H]1CC=CC(=O)O1 |  | H37Rv |  |  | MIC |  | 35.57 µg/mL
O=C(NCCCN1c2ccccc2Sc2ccccc21)N1C(=O)/C(=C\c2ccc(Br)cc2)SC1c1ccc(Br)cc1 | 25 µg/mL | H37Rv |  |  | inhibition | agar | 30%
Nc1ncc(Cc2ccc(OCCc3ccccc3)cc2)c(N)n1 |  | H37Rv |  |  | MIC |  | 100 µM
Cc1ccc([N+](=O)[O-])cc1NC(=O)COc1ccc([N+](=O)[O-])c(F)c1 |  | H37Rv |  |  | MIC | broth dilution | 64 µg/mL
CCOC(=O)c1c(-c2ccc(-c3ccc(Cl)cc3)cc2)[nH]c2ccccc2c1=O | 5 µM | H37Rv |  |  | inhibition | fluorescence | 17.8%
CO[C@H]1/C=C/O[C@@]2(C)Oc3c(C)c(O)c4c(O)c(c(/C=N/N5CCN(C)CC5)c(O)c4c3C2=O)NC(=O)/C(C)=C\C=C\[C@H](C)[C@H](O)[C@@H](C)[C@@H](O)[C@@H](C)[C@H](OC(C)=O)[C@@H]1C |  | CSU22 |  |  | MIC |  | >5 µg/mL
CCc1ccc(-n2c(-c3ccc(OC)cc3)cc(CN3CCOCC3)c2C)cc1 |  | H37Rv |  |  | MIC90 |  | 40.63 µM
CCCCCCCCCCCCCCC[C@H]1CCCC(=O)O1 | 128 µg/mL | H37Rv |  |  | inhibition | fluorescence | 53.6%
CC(CN1c2ccccc2Sc2ccccc21)N(C)C |  |  |  |  | MIC |  | 20 µg/mL
N#Cc1cccc2oc3ccccc3c(=O)c12 |  | H37Rv |  |  | MIC |  | >16 µg/mL
COc1ccc(Cc2cnc(N)nc2N)cc1OC |  | H37Rv |  |  | MIC |  | >123 µM
CCc1ccc(-c2cc(CN3CCOCC3)c(C)n2-c2ccc(F)cc2)cc1 |  | H37Rv DR2 |  | V681I | MIC |  | 0.66 µM
Cc1c(-c2ccc(Oc3ccc(OC(F)(F)F)cc3)nc2)[nH]c2ccccc2c1=O | 5 µM | H37Rv |  |  | inhibition | fluorescence | 80.5%
CCN(CC)C(=O)c1cncc(C(N)=O)c1 |  | H37Rv |  |  | MIC bound | BACTEC | >12.5 µg/mL
O=C(NCCCN1c2ccccc2Sc2ccccc21)N1C(=O)/C(=C\c2ccccc2[N+](=O)[O-])SC1c1ccccc1[N+](=O)[O-] | 25 µg/mL | H37Rv |  |  | inhibition | agar | 28%
C=C(C)/C=C/[C@]12C[C@H](C)C3CC[C@](C)(NC)[C@@H](CC[C@H]1C)[C@@H]32 |  | H37Rv |  |  | MIC100 | resazurin | 15 µg/mL
N#Cc1ccc(NC(=O)c2cc(Br)ccc2O)cc1 |  | CNCTC MY331/88 |  |  | MIC |  | 2 µM
COc1ccc(/C=C2/SC(c3ccc(OC)cc3)N(C(=O)NCCCN3c4ccccc4Sc4ccccc43)C2=O)cc1 | 50 µg/mL | H37Rv |  |  | inhibition | agar | 60%
C=C1C(=O)O[C@H]2C[C@@]3(C)OC(=CC3=O)/C(C)=C\[C@@H](OC(=O)C3(C)OC3C)C12 |  | H37Rv |  |  | MIC | BACTEC | ≥12.5 µg/mL
COc1c(C)c(-c2ccc(Cc3ccccc3)cc2)nc2ccccc12 | 5 µM | H37Rv |  |  | inhibition | fluorescence | 93.4%
COC1/C=C\C=C(/C)C(=O)Nc2cc3nc4cc(Br)ccc4oc-3c(c2=O)CC(C)CC(OC)C(O)C(C)/C=C(\C)C1OC(N)=O |  | CS-R |  |  | MIC |  | 12.5 µg/mL
COC(=O)c1c(-c2ccc(Cl)cc2)csc1NC(=O)c1c(F)c(F)c(F)c(F)c1F |  |  |  |  | MIC |  | 3.5 µM
CN(C)c1ccc(NC(=O)c2cc([N+](=O)[O-])ccc2O)cc1 |  | CNCTC MY331/88 |  |  | MIC |  | 31 µM
COc1ccc2c(c1)n([O-])c1ccccc1[n+]2=O |  | KM-R |  |  | MIC |  | 0.8 µg/mL
O=C(/N=C/c1cccc(Cl)c1)NCCCN1c2ccccc2Sc2ccccc21 | 50 µg/mL | H37Rv |  |  | inhibition | agar | 34%
COC(=O)C(CC(=O)NN(O)O)NC(=O)C(CSC(c1ccccc1)(c1ccccc1)c1ccccc1)NC(=O)OCc1ccccc1 | 12.5 µg/mL | H37Rv |  |  | inhibition | BACTEC | 62%
C/C=C/C1=CC=C/C(=C2\C(=O)CNC2=O)O1 |  | H37Rv |  |  | MIC | resazurin / visual reading | 6.2 µg/mL
CCCNC(=O)NC1CC(=O)N(CCC)C1=O |  | H37Rv |  |  | MIC bound | BACTEC | >12.8 µg/mL
CN1CCCCC1CCN1c2ccccc2Sc2ccc(S(C)=O)cc21 |  | 22 isolates |  |  | MIC |  | 2 µg/mL
O=S(=O)(SC1=NCCN1)c1ccc2ccccc2c1 |  | H37Rv |  |  | MIC bound | resazurin | >6.25 µg/mL
O=[N+]([O-])c1ccc(Oc2cnc3nc(-c4ccccc4Br)[nH]c3c2)cc1 |  | H37Rv |  |  | MIC80 | resazurin / absorbance | 2.1 µM
CN1CC2=C(NC(=S)NC2c2ccc(Cl)cc2)/C(=C/c2ccc(Cl)cc2)C1.Cl |  | H37Rv |  |  | MIC bound | BACTEC | >12.5 µg/mL
CO[C@H]1/C=C/O[C@@]2(C)Oc3c(C)c(O)c4c(O)c(c5c(c4c3C2=O)NC2(CCN(CC(C)C)CC2)N=5)=NC(=O)/C(C)=C\C=C\[C@H](C)[C@H](O)[C@@H](C)[C@@H](O)[C@@H](C)[C@H](OC(C)=O)[C@@H]1C |  | Erdman |  |  | MIC |  | 3 µg/mL
COc1cc2c(c([N+](=O)[O-])c1)NC(=O)CCS2 |  | H37Rv |  |  | MIC bound | BACTEC | >12.5 µg/mL
CCCCCCCCCCCCCCC[C@H](O)CCCC[C@H](O)C[C@H]1CC=CC(=O)O1 | 128 µg/mL | H37Rv | VERO |  | inhibition | fluorescence | 97.4%
CC[C@@]1(OC(=O)CN(C)C)C(=O)OCc2c1cc1n(c2=O)Cc2cc3ccccc3nc2-1 | 6.25 µg/mL | H37Rv |  |  | inhibition | resazurin | 15%
CCOC(=O)c1ccc(NC(=O)c2ccc(C)cc2O)cc1 |  | CNCTC MY331/88 |  |  | MIC |  | 8 µM
N#Cc1cc([N+](=O)[O-])ccc1NC(=O)C(=O)Nn1c(=S)[nH]c2ccccc2c1=O |  | H37Rv |  |  | MIC bound | BACTEC | >12.5 µg/mL
CC(=O)OC[C@]12CC[C@@]3(C)CC=C(C)C=C[C@H]3[C@@H]1CC[C@@H]2C(C)C |  | H37Rv |  |  | MIC | visual reading / absorbance | 151.3 µM

5 of the rows above, restated:

NNC(=O)c1ccncc1 ; endpoint: MIC ; value: 0.2 µM
C=C1C(=O)[C@@]23C(CC[C@@H]1[C@H]2O)C1(COC(C)=O)C(O)CCC(C)(C)C1C[C@H]3O ; dose: 12.5 µg/mL ; strain: H37Rv ; endpoint: inhibition ; method: BACTEC ; value: 11%
COc1ccccc1-c1c(C)cc2oc(=O)cc(-c3ccccc3)c2c1C ; strain: H37Rv ; changes: FadD32 ; endpoint: EC90 ; method: turbidity ; value: >64 µM
CCOC(=O)c1cc(C2(O)CCN(CC(C)CC)C2=O)c(-c2cc(C)no2)[nH]1 ; dose: 6.25 µg/mL ; strain: H37Rv ; endpoint: inhibition ; method: resazurin ; value: -9%
O=S(=O)(SC1=NCCN1)c1ccc2ccccc2c1 ; strain: H37Rv ; endpoint: MIC bound ; method: resazurin ; value: >6.25 µg/mL